Pooled drug test results. Numbers come from NIAID ChemDB, via PubChem.

Shared fields: toxicity to cultured cells; read-out: CC50

An empty or dashed field is not shown.

smiles,cells,read by,result
Nc1cc(OC[C@H]2CC[C@@H](COCc3ccccc3)O2)ncn1,CAKI-1,-,127 µM
CSc1nsc(-c2ccncc2)c1C#N,HEP-2,-,2.5 µM
O=c1cc(OCc2ccccc2)oc2ccc(OCc3cccc(Cl)c3)c(O)c12,Hs27,MTT,>50 µM
NC(=S)Nc1cccc(OCCCCCNc2cccc3ccccc23)c1,Ava5-EG(delta4AB)SEAP,MTS,>1 µM
Nc1nc(OC[C@H]2CC[C@@H](COCc3ccccc3)O2)c2[nH]cnc2n1,PC-3,-,189 µM
COc1ccc(-c2snc(SC)c2C#N)cc1,L929,-,10 µM
COc1ccc(C[C@H](N)C(=O)N[C@H]2[C@@H](O)[C@H](n3cnc4c(N(C)C)ncnc43)O[C@@H]2CO)cc1,HEPG2 (HB-8065),WST,0.34 µg/mL
COc1cc([C@@H]2c3cc4c(cc3[C@@H](O[C@@H]3O[C@@H]5CO[C@@H](C)O[C@H]5[C@H](O)[C@H]3O)[C@H]3COC(=O)[C@H]23)OCO4)cc(OC)c1O,WS1 Cell Line,resazurin,18.5 µg/mL
Cc1cc(C2CC2)n2nc(S(=O)(=O)Nc3c(C)cccc3C(C)C)nc2n1,K562 (CRL-1573),WST,>128 µg/mL
CCOC(=O)CCCCCOc1cccc(CN(C(=O)c2ccc(-c3cccc(OCC(C)C)c3)cc2)C(C)C)c1,RAJI,-,>20 µM
Nc1ccnc(OC[C@H]2CC[C@@H](CO)O2)n1,PC-3,-,≥250 µM
CCOC(=O)c1ccc(NCc2cc3ccccc3oc2=O)cc1,Ava5,MTS,128 µM
CN(C)CCNC(=S)Nc1ccc2c(c1)Cc1cc(Br)ccc1-2,Ava5-EG(delta4AB)SEAP,MTS,>1 µM
Nc1ccn([C@H]2C=C[C@@H](CO)O2)c(=O)n1,RAJI,-,13 µM
CSc1nsc(-c2c(Cl)cccc2Cl)c1C#N,L929,-,5 µM
O=c1cc(OCc2ccc(Cl)cc2)oc2ccc(OCc3cccc(Cl)c3)c(O)c12,Hs27,MTT,>50 µM
Nc1nccc(OC[C@H]2CC[C@@H](CO)O2)n1,PC-3,-,>250 µM
NC(=S)Nc1cccc(OCCCCCOc2ccc3ccccc3c2)c1,Ava5-EG(delta4AB)SEAP,MTS,>1 µM
Cc1nsc(C)c1C#N,HEP-2,-,1000 µM
C#CCCC(=O)CCCc1ccc(OC)c(OC)c1,BJ,-,<7.5 µM
N#Cc1cccc(Cn2ccc3nc(-c4ccccc4)nc-3c2)c1,MDBK,-,>100 µg/mL
CSc1nsc(-c2ccc(Cl)cc2Cl)c1C#N,HEP-2,-,8 µM
CCN(CC)C(=O)c1ccc2nc3ccccc3c(NC3CCN(Cc4ccccc4)CC3)c2c1,BHK,-,159 µM
NC(=S)Nc1cccc(OCCCCCOc2ccc(Cl)cc2)c1,Ava5-EG(delta4AB)SEAP,MTS,>1 µM
CCOC(=O)CCCCCOc1cccc(CN(C(=O)c2ccc(-c3ccco3)cc2)C(C)C)c1,BJ,-,>20 µM
CCOC(=O)/C=C/[C@H](C[C@@H]1CCNC1=O)NC(=O)[C@H](Cc1ccc(F)cc1)NC(=O)[C@@H](NC(=O)c1cc(C)on1)C(C)C,H1-HELA,-,>10 µM
Cc1cc(C2CC2)n2nc(S(=O)(=O)Nc3ccccc3C(F)(F)F)nc2n1,K562 (CRL-1573),WST,>128 µg/mL
CN1CCN(C(=O)c2ccc3nc4ccccc4c(NCCc4c[nH]c5ccccc45)c3c2)CC1,BHK,-,159 µM
CC1=CC(C(=O)N[C@H](C(=O)C[C@@H](Cc2ccc(F)cc2)C(=O)N[C@H](/C=C2\CCOC2=O)CCC(N)=O)C(C)C)NO1,H1-HELA,-,>100 µM
Nc1nc(OC[C@H]2CC[C@@H](COCc3ccccc3)O2)cc(OC[C@@H]2CC[C@H](COCc3ccccc3)O2)n1,CAKI-1,-,40 µM
CC(c1ccccc1)n1ccc2nc(-c3ccccc3)nc-2c1,MDBK,-,>75 µg/mL
CCOC(=O)/C=C/[C@H](C[C@@H]1CCNC1=O)NC(=O)[C@H](Cc1ccc(F)cc1)NC(=O)[C@@H](NC(=O)c1cc(C)on1)C(C)(C)C,H1-HELA,-,>10 µM
C=C(C=O)CCC1C(=C)C[C@@H](OC(=O)c2ccccc2)[C@H]2[C@](C)(C(=O)O)CCC[C@]12C,HELA229,-,1.1 µg/mL
Nc1ncn([C@@H]2O[C@H](CO)[C@@H](O)[C@H]2O)c(=O)n1,U373-MAGI,ATP / luminescence,387 µM
CC(C)N(Cc1cccc(OCCCCCC(=O)OC(=O)O)c1)C(=O)c1ccccc1,RAJI,-,>20 µM
N=C(N)c1cccc2c1CC/C2=N\N=C(N)N,PM1,resazurin,>0.4 µM
NC(=S)Nc1cccc(OCCCCCOc2cccc(C(O)c3ccccc3)c2)c1,Ava5-EG(delta4AB)SEAP,MTS,>1 µM
O=c1oc2ccccc2cc1CNc1cc([N+](=O)[O-])cc([N+](=O)[O-])c1,Ava5,MTS,173 µM
CCOC(=O)/C=C/[C@H](C[C@@H]1CCNC1=O)NC(=O)[C@H](Cc1ccc(F)cc1)OC(=O)[C@@H](NC(=O)c1cc(C)on1)C(C)C,H1-HELA,-,>10 µM
CCOC(=O)CCCCOc1ccccc1C=O,BJ,-,>20 µM
O=C1C(=O)c2ccccc2C(O)=C1c1ccccc1,HEK293T,MTT,54.6 µM
CCOC(=O)c1cc(O)c(O)c(O)c1,Col-2,MTS,>200 µM
CC(C)N(Cc1cccc(OCCCCCC(=O)OC(=O)O)c1)C(=O)c1ccc(-c2cccc(C#N)c2)cc1,HEK 293,-,>20 µM
Cc1cccc(-c2nc3ccn(Cc4ccc(Br)cc4)cc-3n2)c1,MDBK,-,35 µg/mL
Nc1cc(OC[C@H]2CC[C@@H](COCc3ccccc3)O2)nc(N)n1,CAKI-1,-,144 µM
Brc1ccc(Cn2ccc3nc(-c4cccc(I)c4)nc-3c2)cc1,MDBK,-,4.3 µg/mL
O=c1oc2ccccc2cc1CNc1ccccc1,Ava5,MTS,>200 µM
Clc1ccc(Cn2ccc3nc(-c4ccccc4)nc-3c2)cc1,MDBK,-,51 µg/mL
Cc1cc2ccccc2nc1Nc1ccc(OC(F)(F)F)cc1,PBMCs,-,0.001 µM

4 of the rows above, restated:

{"smiles": "Nc1cc(OC[C@H]2CC[C@@H](COCc3ccccc3)O2)nc(N)n1", "cells": "CAKI-1", "result": "144 µM"}
{"smiles": "Nc1nccc(OC[C@H]2CC[C@@H](CO)O2)n1", "cells": "PC-3", "result": ">250 µM"}
{"smiles": "COc1cc([C@@H]2c3cc4c(cc3[C@@H](O[C@@H]3O[C@@H]5CO[C@@H](C)O[C@H]5[C@H](O)[C@H]3O)[C@H]3COC(=O)[C@H]23)OCO4)cc(OC)c1O", "cells": "WS1 Cell Line", "read by": "resazurin", "result": "18.5 µg/mL"}
{"smiles": "CCOC(=O)/C=C/[C@H](C[C@@H]1CCNC1=O)NC(=O)[C@H](Cc1ccc(F)cc1)NC(=O)[C@@H](NC(=O)c1cc(C)on1)C(C)(C)C", "cells": "H1-HELA", "result": ">10 µM"}

Rows are shuffled and stem from different studies. CCn: concentration that lowers growth or viability of the cells by n%.